Compound potency records, mixed from different reports. Data source: NIAID ChemDB in PubChem.

Shared fields: tests in culture; species: Hepatitis C virus; read by: replicon; measure: EC50

ECn is the concentration giving n% inhibition of infection, replication or growth.

NC(=O)COc1ccc2c(c1)S(=O)(=O)N=C(c1c(O)c3cc(F)ccc3n(CCC3CC3)c1=O)N2 ; strain or isolate: 1a 33781 ; result: 1.1 µM
O=C(Cc1cccc(Cl)c1)N/N=C/c1c(F)cccc1OS(=O)(=O)c1ccc(C(F)(F)F)cc1 ; cells: Huh7 ; result: <5 µM
CCOc1nc(NCc2ccc(F)cc2Cl)nc2ccc(-c3ccc(F)cc3)nc12 ; result: <0.1 µM
O=C(Cc1ccc(F)c(Cl)c1)N/N=C/c1ccccc1OS(=O)(=O)c1ccc(C(F)(F)F)cc1 ; cells: Huh7 ; result: <5 µM
O=C1Cn2c(c(C3CCCCC3)c3ccc(C(=O)O)cc32)N1 ; cells: Huh7 ; result: >10 µM
CCOc1nc(NCc2ccc(F)cc2)nc2ccc(-c3ccc(NC(=O)NC4CC4)cc3)nc12 ; result: <0.1 µM
O=C(Cc1ccccc1)N/N=C/c1ccccc1OS(=O)(=O)c1ccc(F)cc1Cl ; cells: Huh7 ; result: 5–50 µM
CCN(C)S(=O)(=O)NC(=O)c1ccc2c(C3CCCCC3)c3n(c2c1)CC(C(=O)N1CCOCC1)=Cc1ccccc1-3 ; cells: Huh7 ; result: 0.01–1 µM
COc1cccc(CC(=O)N/N=C/c2c(C)cccc2OS(=O)(=O)c2ccc(C(F)(F)F)cc2)c1 ; cells: Huh7 ; result: <5 µM
CNC(=O)c1c(-c2ccc(F)cc2)oc2cc(C(C)(C)NC(C)=O)c(OC)cc12 ; cells: Huh7 ; result: <1 µM
CCOc1nc(NCc2ccc(F)cc2)nc2ccc(-c3cnc(N)cn3)nc12 ; result: <0.1 µM
CNC(=O)c1c(-c2ccc(F)cc2)oc2cc(-c3c(C4CC4)noc3COC)c(OC)cc12 ; cells: Huh7 ; result: <1 µM
NC(=O)C1(NC(=O)c2ccc3c(C4CCCCC4)c4n(c3c2)CC(=O)Nc2ccccc2-4)CCCC1 ; cells: Huh7 ; result: 0.01–1 µM
Cc1cccc(S(=O)(=O)Oc2ccccc2/C=N/NC(=O)Cc2ccccc2)c1 ; cells: Huh7 ; result: >50 µM
CCOP(=O)(CCNc1nc(NCC(F)(F)F)c2nc(-c3ccc(F)cc3)ccc2n1)OCC ; result: <0.1 µM
CN(C)S(=O)(=O)NC(=O)c1ccc2c(C3CCCCC3)c3n(c2c1)CC(C(=O)N1CCOCC1)=Cc1cccnc1-3 ; cells: Huh7 ; result: 0.01–1 µM
CCOc1nc(N)nc2ccc(-c3ccc(NC(=O)C4CC4)cc3)nc12 ; cells: Huh7 ; result: <0.3 µM
CCOC(=O)/C=C/c1ccc(NC(=O)C2(NC(=O)c3ccc4c(C5CCCCC5)c5n(c4c3)CCCc3cc(O)ccc3-5)CCCC2)cc1 ; cells: Huh7 ; result: 0.01–1 µM
CNC(=O)c1c(-c2ccc(F)cc2)oc2cc(C3CCCN3S(C)(=O)=O)c(OC)cc12 ; cells: Huh7 ; result: <1 µM
NS(=O)(=O)c1ccc(CNc2nc(Nc3ccc(-n4cncn4)cc3)c3nc(-c4ccc(F)cc4)ccc3n2)cc1 ; result: <0.1 µM
CCN(c1cc2oc(-c3ccc(F)cc3)c(C(=O)NC)c2cc1OCc1cccc2c1C(=O)OC(C)(C)O2)S(C)(=O)=O ; cells: Huh7 ; result: <1 µM
COCCNc1nc(N)nc2ccc(-c3ccc(C(=O)NC4CC4)cc3)nc12 ; cells: Huh7 ; result: <0.3 µM
COc1cccc(CC(=O)N/N=C/c2ccccc2OS(=O)(=O)c2cnn(-c3ccccc3)c2C)c1 ; cells: Huh7 ; result: <5 µM
CN(C)S(=O)(=O)NC(=O)c1ccc2c(C3CCCCC3)c3n(c2c1)CC(C(=O)N1CCN(c2ccncc2)CC1)=Cc1ccccc1-3 ; cells: Huh7 ; result: 0.01–1 µM
CCOc1nc(NCc2c(F)cc(F)cc2F)nc2ccc(-c3ccc(F)cc3)nc12 ; result: <0.1 µM
CCNC(=O)c1c(-c2ccccc2)oc2ccc(OC)cc12 ; cells: Huh7 ; result: <10 µM
O=C(Cc1cccc(-n2cccc2)c1)N/N=C/c1ccccc1OS(=O)(=O)c1ccc(C(F)(F)F)cc1 ; cells: Huh7 ; result: >50 µM
NS(=O)(=O)c1cccc(CNc2nc(NCC(F)(F)F)c3nc(-c4ccc(F)cc4)ccc3n2)c1 ; result: <0.1 µM
Cc1nc2c(s1)CCCn1c-2c(C2CCCCC2)c2ccc(C(=O)NC3(C(=O)Nc4ccc(/C=C/C(=O)O)cc4)CCCC3)cc21 ; cells: Huh7 ; result: 1–10 µM
CNC(=O)c1c(-c2ccoc2)oc2ccc(OC)cc12 ; cells: Huh7 ; result: <30 µM
Cc1ccc(OS(=O)(=O)c2ccc(C(F)(F)F)cc2)c(/C=N/NC(=O)Cc2cccc(Cl)c2)c1 ; cells: Huh7 ; result: <5 µM
COc1cc2c(C(=O)NC(C)C)c(-c3ccc(F)cc3)oc2cc1-c1c(C)noc1C ; cells: Huh7 ; result: >30 µM
Cc1ccc(S(=O)(=O)Cc2ccccc2/C=N/NC(=O)Cc2cccc(Cl)c2)cc1 ; cells: Huh7 ; result: <5 µM

Two numbers with a dash give a range or band. Conditions beyond the fields shown may differ between rows.